Measured values from several laboratories, pooled; numbers as filed in NIAID ChemDB.

Shared fields: tests in culture

Blank or dashed fields: not listed here. MIC50, MIC90 and the like: level of inhibition, or share of isolates inhibited. Lines come from different laboratories, so protocols vary. Zone: diameter of growth inhibition.

smiles,species,strain,read by,setting,endpoint,tested at,value
COc1c(N2CCNC(C)C2)c(F)cc2c(=O)c(C(=O)O)cn(C3CC3)c12,Mycobacterium marinum,37 clinical isolates,-,-,MIC50,-,0.094 µg/mL
COc1c(N2CCNC(C)C2)c(F)cc2c(=O)c(C(=O)O)cn(C3CC3)c12,Mycobacterium smegmatis,KD1163 (GRYA+),-,-,MIC99,-,0.03 µg/mL
CC#CCCC,Mycobacterium bovis BCG,1173P2,resazurin,48 h,MIC,-,31.25 µg/mL
COc1cc(Cc2cnc(N)nc2N)cc(OC)c1OC,Mycobacterium ulcerans,ATCC 35840,-,-,MIC,-,>16 µg/mL
NNC(=O)c1ccncc1,Mycobacterium avium,ATCC 25291,-,-,Median MIC,-,>32 µg/mL
CN[C@@H]1[C@@H](O[C@H]2O[C@H](CO)[C@@H](N)[C@H](O)[C@H]2O)OC2C[C@@H](N)[C@@H](O[C@H]3[C@@H](O)[C@@H](O)[C@H](N)C[C@@H]3N)OC2[C@@H]1O,Mycobacterium abscessus,L948,broth dilution,-,MIC,-,0.5 µg/mL
Cc1nn(-c2ccccc2)c2c1C(c1cn(-c3ccccc3)nc1-c1ccc(Cl)cc1)C1=C(NC(C)(c3cc(O)c(I)cc3Cl)NC1=O)O2,Mycobacterium phlei,NCIM 2240,agar diffusion / agar,-,zone,1 mg/mL,2.8 mm
CC[C@H]1OC(=O)[C@H](C)[C@@H](O[C@H]2C[C@@](C)(OC)[C@@H](O)[C@H](C)O2)[C@H](C)[C@@H](O[C@@H]2O[C@H](C)C[C@H](N(C)C)[C@H]2O)[C@](C)(OC)C[C@@H](C)C(=O)[C@H](C)[C@@H](O)[C@]1(C)O,Mycobacterium avium,RG1,-,-,MIC,-,0.12 µg/mL
Cc1nn(-c2ccccc2)c2c1C(c1cn(-c3ccccc3)nc1-c1ccc(Cl)cc1)C1=C(NC(C)(c3cc(O)c(Cl)c(O)c3)NC1=O)O2,Mycobacterium phlei,NCIM 2240,agar diffusion / agar,-,zone,1 mg/mL,6.5 mm
CN[C@@H]1[C@@H](O[C@H]2O[C@H](CO)[C@@H](N)[C@H](O)[C@H]2O)O[C@H]2C[C@@H](N)C(O[C@H]3[C@H](O)[C@@H](O)[C@H](N)C[C@@H]3N)O[C@@H]2[C@@H]1O,Mycobacterium abscessus,L948,broth dilution,-,MIC,-,2 µg/mL
O=C(Nc1ccc(Cl)cc1)c1cc(Cl)ccc1OP(=O)(Oc1ccccc1)c1ccccc1,Mycobacterium kansasii,My 235/80,-,7 d,MIC,-,4 µM
CN[C@@H]1[C@@H](O[C@H]2O[C@H](CO)[C@@H](N)[C@H](O)[C@H]2O)OC2C[C@@H](N)[C@@H](O[C@H]3[C@H](OCCCN)[C@@H](O)[C@H](N)C[C@@H]3N)OC2[C@@H]1O,Mycobacterium abscessus,L948,broth dilution,-,MIC,-,1 µg/mL
CC1CN(c2c(F)cc3c(=O)c(C(=O)O)cn(C4CC4)c3c2F)CC(C)N1,Mycobacterium smegmatis,KD2012 (GYRA G89A),-,-,MIC99,-,0.24 µg/mL
C#CC(O)CCCCC,Mycobacterium bovis BCG,1173P2,resazurin,48 h,MIC,-,125 µg/mL
O=C(Nc1ccc(Cl)c(Cl)c1)c1cc(Cl)ccc1OP(=O)(c1ccccc1)c1ccccc1,Mycobacterium kansasii,My 235/80,-,21 d,MIC,-,8 µM
C#CC(C)(C)O,Mycobacterium bovis BCG,1173P2,resazurin,48 h,MIC,-,125 µg/mL
CCn1cc(C(=O)O)c(=O)c2cc(F)c(N3CCNCC3)nc21,Mycobacterium fortuitum,ATCC 6841,-,-,MIC,-,0.4 µg/mL
CC(C)N1CCN(c2c(F)cc3c(=O)c(C(=O)O)cn(C4CC4)c3c2F)CC1,Mycobacterium smegmatis,KD1991 (GYRA D95Y),-,-,MIC99,-,5.8 µg/mL
CC1CN(c2c(F)cc3c(=O)c(C(=O)O)cn(C4CC4)c3c2F)CC(C)N1,Mycobacterium fortuitum,ATCC 6841,-,-,MIC,-,0.06 µg/mL
CCC1CN(c2cc3c(cc2F)c(=O)c(C(=O)O)cn3C2CC2)CCN1,Mycobacterium bovis,BCG-KD1295 (WILD TYPE),-,-,MIC,-,0.08 µg/mL
Cc1nn(-c2ccccc2)c2c1C(c1cn(-c3ccccc3)nc1-c1ccc(Cl)cc1)C1=C(NC(C)(c3cc(O)cc(O)c3)NC1=O)O2,Mycobacterium phlei,NCIM 2240,agar diffusion / agar,-,zone,0.5 mg/mL,3.8 mm
CC1CN(c2c(F)c(N)c3c(=O)c(C(=O)O)cn(C4CC4)c3c2F)CCN1C,Mycobacterium avium,RG2,-,-,MIC,-,0.5 µg/mL
O=C(Nc1ccccc1)c1ccccc1OP(=O)(OCc1ccccc1)OCc1ccccc1,Mycobacterium kansasii,My 235/80,-,21 d,MIC,-,500 µM
CC[C@@H](CO)NCCN[C@@H](CC)CO,Mycobacterium avium complex,3010-4,-,-,MIC,-,1.9 µg/mL
CCN1CCN(c2cc3c(cc2F)c(=O)c(C(=O)O)cn3C2CC2)CC1,Mycobacterium bovis,BCG-CX1 (D94N),-,-,MIC,-,10.5 µg/mL
O=C(Nc1ccc(Cl)cc1)c1cc(Cl)ccc1OP(=O)(OCc1ccccc1)OCc1ccccc1,Mycobacterium kansasii,My 235/80,-,21 d,MIC,-,32 µM
C[C@H]1c2cccc(O)c2C(O)=C2C(=O)[C@]3(O)C(O)=C(C(N)=O)C(=O)[C@@H](N(C)C)[C@@H]3[C@@H](O)[C@@H]21,Mycobacterium marinum,37 clinical isolates,-,-,MIC50,-,2 µg/mL
CNCC1CCN(c2c(F)cc3c(=O)c(C(=O)O)cn(C4CC4)c3c2Br)C1,Mycobacterium fortuitum,ATCC 6841,-,-,MIC,-,≤0.03 µg/mL
O=C(Nc1ccc(Cl)cc1)c1cc(Cl)ccc1OP(=O)(c1ccccc1)c1ccccc1,Mycobacterium kansasii,My 6509/96,-,21 d,MIC,-,8 µM
C#CCCC,Mycobacterium bovis BCG,1173P2,resazurin,24 h,MIC,-,3.87 µg/mL
NC1CCN(c2nc3c(cc2F)c(=O)c(C(=O)O)cn3C2CC2)C1,Mycobacterium fortuitum,ATCC 6841,-,-,MIC,-,0.06 µg/mL
CC(C)N1CCN(c2cc3c(cc2F)c(=O)c(C(=O)O)cn3C2CC2)CC1,Mycobacterium smegmatis,KD2012 (GYRA G89A),-,-,MIC99,-,1.6 µg/mL
CC[C@@H](CO)NCCN[C@@H](CC)CO,Mycobacterium avium,RG3,-,-,MIC,-,8 µg/mL
CN[C@@H]1[C@@H](O[C@H]2O[C@H](CO)[C@@H](N)[C@H](O)[C@H]2O)OC2C[C@@H](N)[C@@H](O[C@H]3[C@H](OC4O[C@H](CO)[C@@H](OCCO)[C@H]4O)[C@@H](O)[C@H](N)C[C@@H]3N)OC2[C@@H]1O,Mycobacterium abscessus,L948,broth dilution,-,MIC,-,32 µg/mL
CCC1CN(c2c(F)cc3c(=O)c(C(=O)O)cn(C4CC4)c3c2F)CCN1,Mycobacterium smegmatis,KD2003 (GYRA D95G),-,-,MIC99,-,1.4 µg/mL
Nc1ccc(S(=O)(=O)c2ccc(N)cc2)cc1,Mycobacterium ulcerans,Isolate 94-886,-,-,MIC,-,4 µg/mL
C#CCCOC(C)=O,Mycobacterium bovis BCG,1173P2,resazurin,48 h,MIC,-,125 µg/mL
CN[C@@H]1[C@@H](O)[C@@H](O[C@@H]2[C@@H](O)[C@H](O[C@H]3O[C@H](CN)CC[C@H]3N)[C@@H](N)C[C@H]2N)OC[C@]1(C)O,Mycobacterium avium,ATCC 25291,-,-,Mean MIC,-,6.25 µg/mL
CC1CN(c2cc3c(cc2F)c(=O)c(C(=O)O)cn3C2CC2)CCN1,Mycobacterium bovis,BCG-KD1295 (WILD TYPE),-,-,MIC,-,0.053 µg/mL
CNCC1CCN(c2nc3c(cc2F)c(=O)c(C(=O)O)cn3C(C)(C)C)C1,Mycobacterium fortuitum,ATCC 6841,-,-,MIC,-,0.06 µg/mL
O=C(Nc1ccc(C(F)(F)F)cc1)c1cc(Br)ccc1OP(=O)(Oc1ccccc1)Oc1ccccc1,Mycobacterium kansasii,My 6509/96,-,7 d,MIC,-,4 µM
CO[C@H]1/C=C/O[C@@]2(C)Oc3c(C)c(O)c4c(O)c(c(/C=N/N5CCN(C)CC5)c(O)c4c3C2=O)NC(=O)/C(C)=C\C=C\[C@H](C)[C@H](O)[C@@H](C)[C@@H](O)[C@@H](C)[C@H](OC(C)=O)[C@@H]1C,Mycobacterium avium intracellulare,10 isolates,-,-,MIC50,-,0.5 µg/mL
CC1CN(c2c(F)cc3c(=O)c(C(=O)O)cn(C4CC4)c3c2Br)CC(C)N1,Mycobacterium smegmatis,KD1163 (GRYA+),-,-,MIC99,-,0.11 µg/mL
C[C@H]1COc2c(N3CCN(C)CC3)c(F)cc3c(=O)c(C(=O)O)cn1c23,Mycobacterium marinum,37 clinical isolates,-,-,MIC50,-,1 µg/mL
CN[C@@H]1[C@H](O[C@H]2[C@H](O[C@H]3[C@H](O)[C@@H](O)[C@H](N=C(N)N)[C@@H](O)[C@@H]3N=C(N)N)O[C@@H](C)[C@]2(O)C=O)O[C@@H](CO)[C@H](O)[C@H]1O,Mycobacterium avium,ATCC 25291,-,-,Mean MIC,-,1.88 µg/mL
COc1c(N2CCNC(C)C2)c(F)cc2c(=O)c(C(=O)O)cn(-c3ccc(F)cc3F)c12,Mycobacterium fortuitum,ATCC 6841,-,-,MIC,-,1 µg/mL
Cc1nn(-c2ccccc2)c2c1C(c1cn(-c3ccccc3)nc1-c1ccc(F)cc1)C1=C(NC(C)(c3cc(O)c(I)cc3Cl)NC1=O)O2,Mycobacterium phlei,NCIM 2240,agar diffusion / agar,-,zone,0.1 mg/mL,5.8 mm
CN[C@@H]1[C@@H](O[C@H]2O[C@H](CO)[C@@H](N)[C@H](O)[C@H]2O)OC2C[C@@H](N)[C@@H](O[C@H]3[C@H](OC4O[C@H](CN)[C@@H](OCCN)[C@H]4O)[C@@H](O)[C@H](N)C[C@@H]3N)OC2[C@@H]1O,Mycobacterium abscessus,L948,broth dilution,-,MIC,-,1 µg/mL
CC(C)N=c1cc2n(-c3ccc(Cl)cc3)c3ccccc3nc-2cc1Nc1ccc(Cl)cc1,Mycobacterium avium,ATCC 25291,-,-,Median MIC,-,0.47 µg/mL
CCOc1c(N2CCNC(C)C2)c(F)cc2c(=O)c(C(=O)O)cn(C3CC3)c12,Mycobacterium fortuitum,ATCC 6841,-,-,MIC,-,0.06 µg/mL
CN[C@@H]1[C@@H](O[C@H]2O[C@H](CO)[C@@H](N)[C@H](O)[C@H]2O)OC2C[C@@H](N)[C@@H](O[C@H]3[C@H](OC4O[C@H](CNC=O)[C@@H](O)[C@H]4O)[C@@H](O)[C@H](N)C[C@@H]3N)OC2[C@@H]1O,Mycobacterium abscessus,L948,broth dilution,-,MIC,-,16 µg/mL
O=C(Nc1ccc(C(F)(F)F)cc1)c1cc(Cl)ccc1OP(=O)(Oc1ccccc1)Oc1ccccc1,Mycobacterium kansasii,My 235/80,-,21 d,MIC,-,4 µM
CCN1CCN(c2c(F)cc3c(=O)c(C(=O)O)cn(-c4ccc(F)cc4F)c3c2OC)CC1,Mycobacterium fortuitum,ATCC 6841,-,-,MIC,-,2 µg/mL

A second listing of 7 rows from above:

{"smiles": "CCN1CCN(c2cc3c(cc2F)c(=O)c(C(=O)O)cn3C2CC2)CC1", "species": "Mycobacterium bovis", "strain": "BCG-CX1 (D94N)", "endpoint": "MIC", "value": "10.5 µg/mL"}
{"smiles": "CNCC1CCN(c2c(F)cc3c(=O)c(C(=O)O)cn(C4CC4)c3c2Br)C1", "species": "Mycobacterium fortuitum", "strain": "ATCC 6841", "endpoint": "MIC", "value": "≤0.03 µg/mL"}
{"smiles": "NNC(=O)c1ccncc1", "species": "Mycobacterium avium", "strain": "ATCC 25291", "endpoint": "Median MIC", "value": ">32 µg/mL"}
{"smiles": "COc1c(N2CCNC(C)C2)c(F)cc2c(=O)c(C(=O)O)cn(C3CC3)c12", "species": "Mycobacterium marinum", "strain": "37 clinical isolates", "endpoint": "MIC50", "value": "0.094 µg/mL"}
{"smiles": "CCn1cc(C(=O)O)c(=O)c2cc(F)c(N3CCNCC3)nc21", "species": "Mycobacterium fortuitum", "strain": "ATCC 6841", "endpoint": "MIC", "value": "0.4 µg/mL"}
{"smiles": "Cc1nn(-c2ccccc2)c2c1C(c1cn(-c3ccccc3)nc1-c1ccc(Cl)cc1)C1=C(NC(C)(c3cc(O)c(I)cc3Cl)NC1=O)O2", "species": "Mycobacterium phlei", "strain": "NCIM 2240", "read by": "agar diffusion / agar", "endpoint": "zone", "tested at": "1 mg/mL", "value": "2.8 mm"}
{"smiles": "NC1CCN(c2nc3c(cc2F)c(=O)c(C(=O)O)cn3C2CC2)C1", "species": "Mycobacterium fortuitum", "strain": "ATCC 6841", "endpoint": "MIC", "value": "0.06 µg/mL"}